Measured values from several laboratories, pooled; numbers as filed in NIAID ChemDB.

Common to all: toxicity to cultured cells; cells: CEM; read by: cell count; read-out: CC50

CCn: concentration that lowers growth or viability of the cells by n%. Conditions beyond the fields shown may differ between rows.

compound | value
O=C1c2ccccc2C(=O)N1C/C=C\Cn1cc(F)c(=O)[nH]c1=O | >50 µM
O=S(=O)(Cc1ccccc1)c1ncccc1O | >100 µg/mL
O=C1c2ccccc2C(=O)N1C/C=C/Cn1cnc2c(Cl)ncnc21 | >50 µM
c1ccc(CSc2ccccn2)cc1 | 51 µg/mL
CC#C[C@@]1(CO)C=C[C@H](n2cc(C)c(=O)[nH]c2=O)O1 | >100 µM
O=S(=O)(Cc1ccc(Cl)cc1)c1cccc[n+]1[O-] | 25 µg/mL
COC(=O)[C@H]1NC(=O)[C@H]2NC(=O)[C@H](NC(=O)[C@H](N)c3cc(Oc4ccc(C[C@@H](NC(=O)OCc5ccccc5)C(=O)O)cc4Cl)c(O)c(c3)Oc3ccc(cc3Cl)[C@H]2O)c2ccc(O)c(c2)-c2c(O)cc(O)cc21 | >500 µM
O=C1c2ccccc2C(=O)N1C/C=C\Cn1ccc(=O)[nH]c1=O | >50 µM
CC(C)C[C@H](C(=O)N[C@H]1C(=O)N[C@@H](CC(N)=O)C(=O)N[C@H]2C(=O)N[C@H]3C(=O)N[C@H](C(=O)N[C@H](C(=O)O)c4cc(O)c(CN5CCN(Cc6ccc(-c7ccccc7)cc6)CC5)c(O)c4-c4cc3ccc4O)[C@H](O)c3ccc(cc3)Oc3cc2cc(c3O)Oc2ccc(cc2Cl)[C@H]1O)N(C)C(=O)OC(C)(C)C | >100 µM
NC/C=C/Cn1ccc(=O)[nH]c1=O | >50 µM
Cc1ccccc1CS(=O)c1cccc[n+]1[O-] | 52 µg/mL
CN[C@H]1C(=O)N[C@@H]2Cc3ccc(cc3)Oc3cc4cc(c3O[C@@H]3O[C@H](C(=O)O)[C@@H](O)[C@H](O)[C@H]3N)Oc3ccc(cc3Cl)[C@@H](O)[C@@H]3NC(=O)[C@H](NC(=O)[C@@H]4NC(=O)[C@@H](NC2=O)c2cc(cc(O)c2Cl)Oc2cc1ccc2O)c1ccc(O)c(c1)-c1c(O)cc(O)cc1[C@@H](C(=O)O)NC3=O | >500 µM
NC/C=C\Cn1cnc2c(N)ncnc21 | 5.7 µM
Cc1ccccc1C(Sc1cccc[n+]1[O-])C(N)=O | >100 µg/mL
CN(Cc1ccc(Cl)cc1)Cc1c(O)cc2c(c1O)-c1cc(ccc1O)[C@H]1NC(=O)[C@@H]3NC(=O)[C@H]4NC(=O)[C@@H](Cc5ccc(c(Cl)c5)Oc5cc3cc(c5O)Oc3ccc(cc3Cl)[C@@H](O)[C@H](NC1=O)C(=O)N[C@@H]2C(=O)O)NC(=O)[C@H](N)c1ccc(O)c(c1)Oc1cc(O)cc4c1 | >100 µM

For reference, 2 entries again:

compound	value
Cc1ccccc1C(Sc1cccc[n+]1[O-])C(N)=O	>100 µg/mL
O=C1c2ccccc2C(=O)N1C/C=C\Cn1ccc(=O)[nH]c1=O	>50 µM